# Assay results as given in patent publication US20120258127A1 (priority 2010, published 2012).
# Where two headings read alike, the source gives them in different places.
# Test system: CSFV reference strain Alfort 187
# Type: cell-based, porcine
substance,measurement,setting,value
IFN-γ,Levels of viral E2 protein in the cytosol of infected cells,,dose-dependant effect on the reduction
same,Number of infected cells,,reduced the number of infected cells down to a level comparable with those of cells pre-treated with IFN-α
same,Proportion of infected cells,,no effect
same,Viral RNA released into the culture supernatant,,dose-dependant effect on the reduction
same,Proportion of CSFV infected cells,after 24 hours,dose-dependant reduction
same,Proportion of CSFV infected cells,after 48 hours,reduction in the proportion of CSFV infected cells
